# Assay results published in US4708871A, “Antigenically active amino acid sequences” (priority 1983, dated 1987).
# Test system: anti-intact virus particle type A10 antiserum
# Assay type: binding, rabbit
substance,measurement,value
DLGSIA [D - L - G - S - I - A],Contribution to the virus particle-associated antigenic determinant,principal loci

# No end group written: not given here.
